Laboratory results: PMC8531726
The exact form of at least one protein or probe is not confirmed. The comparison behind a weaker result is the experiment's own reference, which may not be listed here. Where a protein sequence is shown, tags need not be part of it.

Tested on: T1, Zur (Pseudomonas aeruginosa)
T1 sequence (looked up): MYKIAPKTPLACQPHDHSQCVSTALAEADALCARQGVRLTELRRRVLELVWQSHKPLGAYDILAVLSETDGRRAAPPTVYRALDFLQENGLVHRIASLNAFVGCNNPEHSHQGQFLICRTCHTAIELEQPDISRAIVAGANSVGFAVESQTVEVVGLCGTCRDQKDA
Assay: EMSA
Conditions: 500 nM Zur, 30 uM TPEN (Zn depleted), complete interaction only with Zn, EMSA: 30 ng DNA, 5X Zn-less binding buffer (50 mM Tris, 200 mM KCl, 50 mM MgCl2, 5 mM DTT, 25% glycerol), recombinant protein, residues 1-167, probe letters rebuilt from the primers and the genome

Q: Does “ACTTTCCCGTTCCTCTTCGCCGGCAGGCATGCGGACATTGCCGCTGCACGTCGGCACGACGCCATGCAGAGTGGCTACGCGGGTCTACCGACACAAAAAGAAATAATATAACATCCCAATAAATACGCCGATCCGACCCCGTCGCCCTTCCTCCGGGAAGGGCCTGGGTTCGCTTTGGCCTGAAAAAAGTCCGACCCA (double strand) [pznuD]” bind?
A: Result: binds more weakly

Q: Does “ATGGGCCTGGGCGGCGAACGGCAGCAAGACGAGGGCTAACAGCAGTGGGCGCATGAACGGGACTCCGGCAAGGAAGGAAAAGAGTTTGTTACGTTATAACGAATTTTTCCGCCTGCCTAGCCTGGCCGATTTGGCCCCTACGCGCCGACGTGGGAGCATGGCGCGATTCGCTTGTGGAGAAAC (double strand) [pPA4063]” bind?
A: Result: binds more weakly

Q: Does “CTCTGCCAGACCAGTTCCAGCACGCGCCGCCGCAGTTCGGTCAGGCGCACGCCCTGGCGCGCGCACAGCGCATCGGCCTCGGCCAGCGCGGTGCTGACGCACTGGCTGTGGTCATGGGGCTGGCAGGCCAGCGGGGTCTTGGGCGCAATCTTGTACATGGGCTGCGACGCTCGAGGGTAGAGACGTTATTATATTACCCGCTAACCACCTTTCA (double strand) [pznuA]” bind?
A: Result: binds more weakly

Q: Does “GTGCTGCACACAGACTCTCGTCTTCCAGTCAAGAGCCTTGGGATGCAGACTGTTTTTCAAATCATGACAACTTCTTAACGCGCATTGTTATAAAGTTGCGGGCGTTTGCGCCGGCCTGGCCGGTACCTTCGAGTTTTGCCTGGAGTGAAGATGAGAGTCGACCTGGAC (double strand) [pPA2439]” bind?
A: Result: binds more weakly

Q: Does “TCGAGCAGCCGAATGGTCGCCGGGAACTCTTTCCGGAGTTGCGAATTATTCTTATCGGAGTAATATGTAACTATATAACATTATGTAGGAGGCATCCCCATGAAACCCGGCATCCATCCCGAATACCGTCCCGTCCTGTTCCATGACACCTCGGCCGACGTGTACTTCCTGATCGGCTCCACC (double strand) [prpmE2]” bind?
A: Result: binds more weakly
